## PSTVd loop 6 mutant pool in Nicotiana benthamiana

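Three N. benthamiana plants were inoculated with the whole mutant pool. Progeny were sequenced from the inoculated region (day 5), the margin of the inoculated leaf (day 10) and systemic leaves (day 12).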

Region: loop 6 of PSTVd (intermediate strain), upper and lower strand joined, each 5' to 3', the first 5 letters being the upper strand, closing pairs included. Wild type: UGACCGCGAG. Varied positions (N): UNNNCGNNNG.

Values are reads per thousand in the sample; higher means more abundant, 0 means not found.
Each site shows the three plants.
"Pool" is the share in the plasmid pool used as inoculum, on the same scale.
The inoculated region was read from the minus strand, the other sites from the plus strand.
Wild type was 20.7 per thousand in the pool and the most common sequence in every sample (inoculated region 195, 198, 203; leaf margin 629, 591, 734; systemic leaves 942, 870, 868).

sequence	pool	inoculated region	leaf margin	systemic leaves
UAGGCGCGAU	0.0131	0.0174 / 0.0719 / 0.111	0.0276 / 0 / 0	0 / 0 / 0
UUUCCGUGUG	0.288	0.122 / 0.126 / 0.0738	0 / 0 / 0.0232	0 / 0 / 0
UCGACGUCAG	0.157	0.226 / 0.0719 / 0.129	0 / 0 / 0	0 / 0 / 0
UAUUCGAGCG	0.301	0.0695 / 0.0539 / 0.0184	0 / 0 / 0	0 / 0 / 0
UGACCGUGAG	0.340	0.539 / 0.539 / 0.756	0.966 / 0.908 / 0.441	0.539 / 0.707 / 0.841
UGCUCGCACG	0.131	0.104 / 0.0539 / 0.0553	0 / 0 / 0.0232	0 / 0 / 0
UGAACGGUCG	0.144	0.139 / 0.198 / 0.258	0.0276 / 0 / 0.0232	0 / 0 / 0
UUUGCGGCGG	0.118	0.0869 / 0.0719 / 0.0369	0 / 0 / 0.0232	0 / 0 / 0
UGGCCGAAGG	0.222	0.139 / 0.108 / 0.240	0 / 0 / 0.0464	0 / 0 / 0
UAUGCGCGAG	0.157	0.122 / 0.0539 / 0.166	0.138 / 0 / 0	0.0180 / 0.0202 / 0.0820
GUGCCGGCAG	0.0131	0 / 0 / 0	0 / 0 / 0	0 / 0 / 0
UUGCCGAAGG	0.170	0.0869 / 0.0719 / 0.0369	0.0276 / 0 / 0	0 / 0 / 0
UCCACGCGAG	0.248	0.0695 / 0.0719 / 0.0553	0.166 / 0 / 0	0 / 0 / 0.0615
UACCCGCUGG	0.196	0.0695 / 0.108 / 0.0738	0 / 0 / 0.0464	0 / 0 / 0
UGAUCGGAUG	0.340	0.122 / 0.0898 / 0.129	0 / 0 / 0	0 / 0 / 0
UGCUCGCUAG	0.105	0.122 / 0.0898 / 0.0738	0.0276 / 0 / 0.0232	0 / 0 / 0
UUAUCGGCCG	0.196	0.695 / 0.880 / 0.535	0.0828 / 0.126 / 0.0696	0 / 0 / 0
UCUACGAUGG	0.340	0.0348 / 0.0719 / 0.129	0.0276 / 0 / 0	0 / 0 / 0
UAGGCGGUUG	0.235	0.0695 / 0.0898 / 0.0553	0 / 0 / 0	0 / 0 / 0
UUAACGACGG	0.314	0.0521 / 0.108 / 0.0184	0 / 0 / 0	0 / 0 / 0
UCUACGAACG	0.170	0.191 / 0.162 / 0.0738	0.0276 / 0 / 0.0232	0 / 0 / 0.0205
UCUCCGGCCG	0.183	0.122 / 0.0539 / 0.0184	0 / 0 / 0.0232	0 / 0 / 0
UAUGCGGUAG	0.183	0.122 / 0.0719 / 0.0184	0 / 0 / 0	0 / 0 / 0
UCAACGUUGG	0.235	0.122 / 0.0359 / 0.111	0 / 0 / 0	0 / 0 / 0
UGAACGAGCG	0.196	0.0521 / 0.144 / 0.111	0.0276 / 0 / 0.0696	0 / 0 / 0
UUCUCGUCCG	0.275	0.139 / 0.0719 / 0.0553	0.0276 / 0 / 0	0 / 0 / 0
UGGCCGUACG	0.275	0.139 / 0.198 / 0.184	0.0552 / 0 / 0	0 / 0 / 0
UCUGCGGCUG	0.183	0.0521 / 0.0539 / 0.111	0 / 0 / 0	0 / 0 / 0
UCCACGGAAG	0.131	0.191 / 0.0539 / 0.0553	0 / 0 / 0	0 / 0 / 0
UAGGCGCGCG	0.222	0.122 / 0.0898 / 0.129	0.0276 / 0 / 0	0 / 0 / 0
UAGUCGAGGG	0.105	0.0869 / 0.0539 / 0.0553	0 / 0 / 0	0 / 0 / 0
UUUUCGCUGG	0.0784	0.104 / 0.0898 / 0.0738	0 / 0 / 0.0232	0 / 0 / 0
UCAGCGGCUG	0.170	0.139 / 0.0898 / 0.111	0 / 0 / 0	0 / 0 / 0
UGCGCGCCAG	0.288	0.0869 / 0.108 / 0.0553	0 / 0 / 0	0 / 0 / 0
UCCGCCUAUG	0.0131	0 / 0 / 0	0 / 0 / 0	0 / 0 / 0
UGUGCGGAAG	0.118	0.104 / 0.0180 / 0.0553	0.0276 / 0 / 0	0 / 0.101 / 0
UCGGCGCUUG	0.353	0.261 / 0.0898 / 0	0.0276 / 0 / 0	0 / 0 / 0
UUAACGGUUG	0.196	0.0869 / 0.108 / 0.148	0 / 0 / 0.0232	0 / 0 / 0
UGCACGCGGG	0.196	0.0869 / 0.0359 / 0.0553	0.0276 / 0 / 0	0 / 0 / 0

A selection of 5 entries from above:

sequence	pool	inoculated region	leaf margin	systemic leaves
UGAACGGUCG	0.144	0.139 / 0.198 / 0.258	0.0276 / 0 / 0.0232	0 / 0 / 0
UUAACGGUUG	0.196	0.0869 / 0.108 / 0.148	0 / 0 / 0.0232	0 / 0 / 0
UCCACGGAAG	0.131	0.191 / 0.0539 / 0.0553	0 / 0 / 0	0 / 0 / 0
UAGGCGGUUG	0.235	0.0695 / 0.0898 / 0.0553	0 / 0 / 0	0 / 0 / 0
GUGCCGGCAG	0.0131	0 / 0 / 0	0 / 0 / 0	0 / 0 / 0

The authors trace changes outside the varied positions to PCR and sequencing errors or to mutation in the plant; presence does not show that a variant is infectious alone.
Samples held 36,220 to 57,551 reads, so the smallest values rest on one or two reads.

From the data files of Wu et al. 2024, doi:10.1371/journal.ppat.1012142.